{"source": "PubChem BioAssay AID504761 (Drosophila RNAi Screening Center, 2011)", "screen": "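Fly genes whose silencing reduces dengue virus type 2 infection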 (primary screen)", "system": "D.Mel-2 cells from Drosophila", "reagent": "long dsRNA against Drosophila genes", "treatment": "infection with dengue virus type 2; dose and infection time not stated", "measured": "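Per well on two replicate plates, imaging gave the percent of cells positive for viral envelope protein, ranked by infection, and a nuclear count of cells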", "reading the numbers": "infection score: higher = more virus-infected cells; cell count: higher = more cells in the well", "hit rule": "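Low infection ranks in the two replicates (chance level up to 0.065) followed by a retest with a 1.5-fold or larger significant decrease, p below 0.05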", "calls": "active = confirmed: knock-down lowers infection; inactive = not picked or not confirmed", "note": "In all, the deposit lists about 22,000 reagents; below is a random part of those that have a named target and a result. In the full data, 116 (0.52%) are marked active. 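Calls depend on retest data that are not deposited; infection was ranked per plate without normalising between plates; the unit of the infection score is not given.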 Raw values are not corrected between plates. A number with no mark means an inactive call. The numbers tell different reagents against one gene apart. A plus sign joins genes that one reagent is predicted to hit. Not all columns of the deposit are shown. Not stated in the record: the amount of reagent, the time to read-out."}
{"predicted target": "CG15563", "dsRNA no.": 1, "infection score, replicate 1": 6.71, "cell count, replicate 1": 6588}
{"predicted target": "CG15563", "dsRNA no.": 2, "infection score, replicate 1": 6.02, "cell count, replicate 1": 6881}
{"predicted target": "jeb (jelly belly)", "dsRNA no.": 1, "infection score, replicate 1": 3.52, "cell count, replicate 1": 6675}
{"predicted target": "jeb (jelly belly)", "dsRNA no.": 2, "infection score, replicate 1": 5.33, "cell count, replicate 1": 6814}
{"predicted target": "jeb (jelly belly)", "dsRNA no.": 3, "infection score, replicate 1": 5.9, "cell count, replicate 1": 6827}

Part of the list above, reformatted:
| predicted target | dsRNA no. | infection score, replicate 1 | cell count, replicate 1 |
| --- | --- | --- | --- |
| CG15563 | 2 | 6.02 | 6881 |
| jeb (jelly belly) | 1 | 3.52 | 6675 |

Further entries follow:
{"predicted target": "Cph (Chronophage)", "dsRNA no.": 1, "infection score, replicate 1": 15.8, "cell count, replicate 1": 6954}
{"predicted target": "enc (encore)", "dsRNA no.": 1, "infection score, replicate 1": 1.03, "cell count, replicate 1": 6301}
{"predicted target": "enc (encore)", "dsRNA no.": 2, "infection score, replicate 1": 3.57, "cell count, replicate 1": 6869}
{"predicted target": "CG42634 + CG42635", "dsRNA no.": 1, "infection score, replicate 1": 3.07, "cell count, replicate 1": 6449}
{"predicted target": "CG15930", "dsRNA no.": 1, "infection score, replicate 1": 2.31, "cell count, replicate 1": 6419}
{"predicted target": "CG15930", "dsRNA no.": 2, "infection score, replicate 1": 12.6, "cell count, replicate 1": 3071}
{"predicted target": "CPT2 (Carnitine palmitoyltransferase 2)", "dsRNA no.": 1, "infection score, replicate 1": 7.77, "cell count, replicate 1": 6155}
